Measured values taken from patent publication US20150158921A1.

Target: mouse muscle type nAChR α1β1δε (mouse), P04756
Assay: cell-based or functional assay

Binder	Half-blocking dose IC50, ACh-gated current, oocyte voltage clamp [nM]
TCRSSGRYCRSPYDRRRRYCRRITDACV (modifications not checked) [αO-conotoxin GeXIVA13 (GeXIVA mature peptide isomer with disulfide bonds I-III, II-IV)]	671
TCRSSGRYCRSPYDRRRRYCRRITDACV (modifications not checked) [αO-conotoxin GeXIVA12 (GeXIVA mature peptide isomer with disulfide bonds I-II, III-IV)]	394
TCRSSGRYCRSPYDRRRRYCRRITDACV (modifications not checked) [αO-conotoxin GeXIVA14 (GeXIVA mature peptide isomer with disulfide bonds I-IV, II-III)]	473
